In patent US20120219613A1 (priority 2009, published 2012):

Test system: Adenovirus
Format: cell-based
Conditions: 10 μM, 293T and Vero cells, flow cytometry

SMILES: C=CCN1C(=O)/C(=C/c2ccc(-c3ccccc3)o2)SC1=S [LJ-001, (Z)-3-Allyl-5-(5-phenyl-2-furyl)methylene-4-oxothiazolidine-2-thione]
- inhibition of Ad5-GFP infection: No inhibition
